Experimental data reported in publication PMC2928817 (PLoS Pathogens, 2010).

Key:
Assay type in all cases: cell-based, 2009 pandemic influenza A (H1N1) virus
Conditions in all cases: MOI 0.0001, 10 µM added 1 h pi, titers 8-48 h pi
[1] = test system: A/Osaka/164/2009 (O164s); assay: In vitro growth kinetics in MDCK cells, O164s
[2] = test system: A/Osaka/180/2009 (O180r); assay: In vitro growth kinetics in MDCK cells, O180r
[3] = test system: A/Vietnam/HCM9727/2009 (VN9727s); assay: In vitro growth kinetics in MDCK cells, VN9727s
[4] = test system: A/Vietnam/HN32060/2009 (VN32060r); assay: In vitro growth kinetics in MDCK cells, VN32060r

[H]/N=C(\N)N[C@H]1C=C(C(=O)O)O[C@@H]([C@H](OC)[C@H](O)CO)[C@@H]1NC(C)=O
inhibited the replication: growth of O164s in the presence of NA inhibitor [1] | growth of O180r in the presence of NA inhibitor [2] | growth of VN9727s in the presence of NA inhibitor [3] | growth of VN32060r in the presence of NA inhibitor [4]
